Reference: PubChem BioAssay AID624099 (ICCB-Longwood, 2012)

Assay: 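Host factors E2 relies on to silence an HPV18 LCR reporter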 (primary screen)
Cells: human C33A cervical carcinoma cells (HPV-negative) stably expressing BPV1 E2 and an HPV18 LCR luciferase reporter
Knock-down reagent: siRNA pool against human genes, 40 nM
Time to read-out: 72 h
Measurement: 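HPV18 LCR reporter light per well, converted to plate-wise z-scores that exclude control wells, and averaged over triplicate plates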
Scale: mean z-score and z-score: higher = stronger reporter signal, weaker E2 silencing
Hit rule: 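Hit if mean z-score reaches 2 and two or more of three replicate z-scores also reach 2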
The deposit covers about 21,000 reagents; below is an unselected part. 497 of all reagents (2.4%) count as active. 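Higher z means weaker E2 silencing; only reporter increases were scored, and knock-downs that hurt cell survival may mask genuine repressor factors.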 Entries without a mark were called inactive.

no.	Target gene	mean z-score	z-score, replicate A	z-score, replicate B	z-score, replicate C
1	ALKBH6	-0.26	-0.35	-0.35	-0.08
2	ZNF519	-0.13	-0.26	-0.17	0.04
3	JMJD6	-2.61	-2.52	-2.68	-2.63
4	WBP11	0.09	0.1	0.08	0.08
5	ZNF847P	0.51	0.78	0.49	0.26
6	CSF2	0.88	0.91	0.79	0.95
7	LOC390299 (retired record)	1.24	1.22	1.24	1.28
8	PPWD1	0.11	-0.08	-0.09	0.5
9	ZSCAN29	-1.35	-1.4	-1.57	-1.07
10	LOC389427 (retired record)	-0.45	-0.06	-0.86	-0.42
11	GSTA3	-0.79	-0.96	-0.67	-0.72
12	TMEM47	-0.32	-0.33	-0.3	-0.34
13	NXPE3	-1.3	-0.72	-1.69	-1.49
14	MPRIP	-0.42	-0.69	-0.3	-0.25
15	LSM11	1.71	1.37	1.89	1.87
16	KCNJ13	-0.51	-0.59	-0.49	-0.46
17	SERINC1	-0.49	-0.78	-0.18	-0.5
18	EIF2S3	-1.33	-1.06	-1.63	-1.29
19	LPIN2	-0.48	-0.53	-0.59	-0.31
20	GPATCH1	2.53 (active)	2.83	2.4	2.36
21	DELE1	0	0	0.21	-0.2
22	NAA10	-1.77	-1.88	-1.74	-1.69
23	ZBTB1	-0.96	-0.86	-0.99	-1.02
24	LILRB2	0.22	0.33	0.17	0.16
25	NOP16	0.02	0.18	-0.51	0.39
26	RTRAF	0.55	0.68	0.37	0.61
27	DPYS	0.08	-0.02	-0.06	0.32
28	ORC5	0.87	0.92	0.78	0.92
29	C12orf43	1.67	1.83	1.66	1.52
30	MYH4	-2.68	-2.55	-2.97	-2.52
31	GINS3	-1.01	-0.91	-1.36	-0.77
32	LINC00664	0.74	0.94	0.64	0.63
33	COA6	-0.54	-0.38	-0.69	-0.55
34	LGALS3BP	-0.65	-0.81	-0.49	-0.66
35	LOC391761 (retired record)	0.53	0.25	0.62	0.73
36	LOC200624 (retired record)	0.67	0.55	0.64	0.81
37	FBXL20	-0.65	-0.92	-0.38	-0.65
38	PGPEP1	1.18	0.86	1.1	1.58
39	LOC401513 (retired record)	-3.25	-3.52	-3.08	-3.16
40	PARM1	0.78	0.62	1.08	0.64
41	CDCA8	-1.35	-1.67	-1.42	-0.96
42	EID2B	-0.03	-0.25	-0.15	0.3
43	BOC	0.22	0.26	0.44	-0.05
44	SPATC1	1.12	0.77	0.9	1.7
45	MAEL	1.9	1.82	1.5	2.38
46	IGF2R	0.45	0.54	0.73	0.09
47	ATOSA	0.8	0.78	0.8	0.84
48	WSB2	0.12	-0.21	0.37	0.21
49	DGAT1	-0.93	-0.54	-1.05	-1.21
50	S100A10	-0.59	-0.38	-0.86	-0.53
51	SEC14L2	-0.88	-1.06	-0.87	-0.73
52	RPL23	-4.05	-4.06	-4.12	-3.98
53	CCNF	0.26	0.09	0.28	0.42
54	XAGE3	0.22	0.56	-0.45	0.53
55	SLC6A10P	-0.47	-0.67	-0.49	-0.25
56	CTSW	2.29 (active)	2.17	3.43	1.28
57	CPVL	-1.11	-1.24	-1.19	-0.9
